A compilation of properties of binary mixtures (doi:10.1016/j.fluid.2021.113137)

Test: xn = mol fraction of the nth substance listed
Settings: 100 kPa

CCCC[N+]1(C)CCCC1.O=S(=O)(F)[N-]S(=O)(=O)F + O
Settings | electrical conductivity [S/m] | mass density [kg/m3] | viscosity [mPa·s]
288.15 K, x1 = 0.8018 | – | 1306.6 | 46.91
288.15 K, x1 = 0.817 | 0.635 | – | –
288.15 K, x1 = 0.8545 | – | 1308.9 | 53.6
288.15 K, x1 = 0.8556 | 0.583 | – | –
288.15 K, x1 = 0.8758 | – | 1310.1 | 55.8
288.15 K, x1 = 0.9182 | – | 1311.6 | 62.8
288.15 K, x1 = 0.9283 | 0.512 | – | –
288.15 K, x1 = 0.9457 | – | 1312.5 | 67.4
288.15 K, x1 = 0.9578 | 0.485 | – | –
288.15 K, x1 = 0.9727 | – | 1313.8 | 72.3
288.15 K, x1 = 0.9771 | 0.464 | – | –
293.15 K, x1 = 0.8018 | – | 1302.8 | 39.15
293.15 K, x1 = 0.8545 | – | 1305.1 | 44.66
293.15 K, x1 = 0.8556 | 0.685 | – | –
293.15 K, x1 = 0.8758 | – | 1306.4 | 46.46
293.15 K, x1 = 0.8777 | 0.671 | – | –
293.15 K, x1 = 0.9002 | 0.635 | – | –
293.15 K, x1 = 0.9283 | 0.605 | – | –
293.15 K, x1 = 0.9457 | – | 1308.8 | 55.8
293.15 K, x1 = 0.9578 | 0.573 | – | –
293.15 K, x1 = 0.9727 | – | 1310 | 59.6
293.15 K, x1 = 0.9771 | 0.55 | – | –
298.15 K, x1 = 0.8018 | – | 1298.6 | 33.09
298.15 K, x1 = 0.817 | 0.859 | – | –
298.15 K, x1 = 0.8545 | – | 1301.1 | 37.66
298.15 K, x1 = 0.8758 | – | 1302.4 | 39.11
298.15 K, x1 = 0.8777 | 0.777 | – | –
298.15 K, x1 = 0.9002 | 0.739 | – | –
298.15 K, x1 = 0.9182 | – | 1303.8 | 43.67
298.15 K, x1 = 0.9283 | 0.705 | – | –
298.15 K, x1 = 0.9457 | – | 1304.8 | 46.64
298.15 K, x1 = 0.9578 | 0.669 | – | –
298.15 K, x1 = 0.9727 | – | 1305.9 | 49.7
298.15 K, x1 = 0.9771 | 0.643 | – | –
303.15 K, x1 = 0.8018 | – | 1294.8 | 28.26
303.15 K, x1 = 0.817 | 0.985 | – | –
303.15 K, x1 = 0.8556 | 0.923 | – | –
303.15 K, x1 = 0.8758 | – | 1298.4 | 33.28
303.15 K, x1 = 0.8777 | 0.904 | – | –
303.15 K, x1 = 0.9182 | – | 1299.9 | 37.01
303.15 K, x1 = 0.9457 | – | 1300.9 | 39.43
303.15 K, x1 = 0.9578 | 0.776 | – | –
303.15 K, x1 = 0.9727 | – | 1302.1 | 41.94
303.15 K, x1 = 0.9771 | 0.746 | – | –
308.15 K, x1 = 0.8018 | – | 1290.6 | 24.37
308.15 K, x1 = 0.817 | 1.12 | – | –
308.15 K, x1 = 0.8545 | – | 1293.1 | 27.62
308.15 K, x1 = 0.8556 | 1.05 | – | –
308.15 K, x1 = 0.8758 | – | 1294.3 | 28.58
308.15 K, x1 = 0.8777 | 1.03 | – | –
308.15 K, x1 = 0.9182 | – | 1295.9 | 31.67
308.15 K, x1 = 0.9283 | 0.943 | – | –
308.15 K, x1 = 0.9578 | 0.899 | – | –
308.15 K, x1 = 0.9727 | – | 1298.1 | 35.72
308.15 K, x1 = 0.9771 | 0.869 | – | –
313.15 K, x1 = 0.8018 | – | 1286.8 | 21.19
313.15 K, x1 = 0.817 | 1.26 | – | –
313.15 K, x1 = 0.8545 | – | 1289.2 | 23.97
313.15 K, x1 = 0.8758 | – | 1290.5 | 24.76
313.15 K, x1 = 0.8777 | 1.16 | – | –
313.15 K, x1 = 0.9002 | 1.11 | – | –
313.15 K, x1 = 0.9182 | – | 1292.1 | 27.34
313.15 K, x1 = 0.9283 | 1.07 | – | –
313.15 K, x1 = 0.9457 | – | 1292.9 | 29.01
313.15 K, x1 = 0.9578 | 1.02 | – | –
313.15 K, x1 = 0.9727 | – | 1294.2 | 30.71
318.15 K, x1 = 0.8018 | – | 1282.8 | 18.58
318.15 K, x1 = 0.817 | 1.41 | – | –
318.15 K, x1 = 0.8545 | – | 1285.3 | 20.97
318.15 K, x1 = 0.8556 | 1.33 | – | –
318.15 K, x1 = 0.8758 | – | 1286.6 | 21.62
318.15 K, x1 = 0.9002 | 1.24 | – | –
318.15 K, x1 = 0.9182 | – | 1288.2 | 23.8
318.15 K, x1 = 0.9457 | – | 1289.2 | 25.2
318.15 K, x1 = 0.9578 | 1.15 | – | –
318.15 K, x1 = 0.9727 | – | 1290.3 | 26.63
323.15 K, x1 = 0.8545 | – | 1281.4 | 18.49
323.15 K, x1 = 0.8758 | – | 1282.7 | 19.02
323.15 K, x1 = 0.8777 | 1.46 | – | –
323.15 K, x1 = 0.9182 | – | 1284.3 | 20.87
323.15 K, x1 = 0.9283 | 1.35 | – | –
323.15 K, x1 = 0.9457 | – | 1285.4 | 22.06
323.15 K, x1 = 0.9578 | 1.29 | – | –
323.15 K, x1 = 0.9727 | – | 1286.3 | 23.25
328.15 K, x1 = 0.8018 | – | 1275.1 | 14.57
328.15 K, x1 = 0.8545 | – | 1277.6 | 16.3
328.15 K, x1 = 0.8556 | 1.65 | – | –
328.15 K, x1 = 0.8758 | – | 1278.9 | 16.84
328.15 K, x1 = 0.8777 | 1.62 | – | –
328.15 K, x1 = 0.9182 | – | 1280.5 | 18.42
328.15 K, x1 = 0.9457 | – | 1281.5 | 19.44
328.15 K, x1 = 0.9578 | 1.44 | – | –
328.15 K, x1 = 0.9771 | 1.4 | – | –
333.15 K, x1 = 0.817 | 1.92 | – | –
333.15 K, x1 = 0.8545 | – | 1273.8 | 14.36
333.15 K, x1 = 0.8556 | 1.83 | – | –
333.15 K, x1 = 0.9002 | 1.72 | – | –
333.15 K, x1 = 0.9182 | – | 1276.6 | 16.36
333.15 K, x1 = 0.9283 | 1.67 | – | –
333.15 K, x1 = 0.9578 | 1.6 | – | –
333.15 K, x1 = 0.9727 | – | 1278.8 | 18.12
333.15 K, x1 = 0.9771 | 1.56 | – | –
